The test system of the assay is Bacillus subtilis (KCTC 1918). It is filed as cell-based. To be noted: 2 × 10^5 CFU/ml, 24 h at 37° C, average of 3–4 independent experiments. An excerpt: Escherichia coli (KCTC 1682), Salmonella typhimurium (KCTC 1926), Pseudomonas aeruginosa (KCTC 1637), Staphylococcus aureus (KCTC 1621), Bacillus subtilis (KCTC 1918), and Listeria monocytogenes (KCTC 3710) were obtained from the Korean Collection for Type Cultures (KCTC). Drug-resistant E. coli strains (CCARM 1229 and CCARM 1238), S. typhimurium strains (CCARM 8007, CCARM 8009, and CCARM 8013), and S. aureus strains (CCARM 3089, CCARM 3090, CCARM 3108, CCARM 3114, and CCARM 3126) were from the Culture Collection of Antibiotic-Resistant Microbes (CCARM) at Seoul Women’s University, Korea.
The antibacterial activities of the peptides against Gram-negative, Gram-positive and antibiotic-resistant bacterial strains were evaluated using the microbroth dilution method (Park et al. [2003]). Aliquots of culture medium containing bacterial suspensions in mid-logarithmic phase at a concentration of 2 × 10^5 colony forming units (CFU)/ml were added to each well of a multiwell plate containing peptide solution serially diluted 2× in 10 mM sodium phosphate buffer (pH 7.2) or phosphate-buffered saline (PBS, 1.5 mM KH2PO4, 2.7 mM KCl, 8.1 mM Na2HPO4, 150 mM NaCl, pH 7.2). Growth inhibition was evaluated by measuring the absorbance at 620 nm using a Versa-Max microplate Elisa Reader (Molecular Devices Co., Sunnyvale, CA, USA) after 24 h of incubation at 37° C. […]

In brackets after ≈: the same amount, converted by molar mass. Where two headings read alike, the source gives them in different places.

As for `CC[C@H](C)[C@H](NC(=O)CN)C(=O)NCC(=O)N[C@@H](C)C(=O)N[C@H](C(=O)N[C@@H](CC(C)C)C(=O)N[C@@H](CCCCN)C(=O)N[C@H](C(=O)N[C@@H](CC(C)C)C(=O)N[C@H](C(=O)N[C@H](C(=O)NCC(=O)N[C@@H](CC(C)C)C(=O)N1CCC[C@H]1C(=O)N[C@@H](C)C(=O)N[C@@H](CC(C)C)C(=O)N[C@H](C(=O)N[C@@H](CO)C(=O)N[C@@H](Cc1c[nH]c2ccccc12)C(=O)N[C@H](C(=O)N[C@@H](CCCCN)C(=O)N[C@@H](CCCNC(=N)N)C(=O)N[C@@H](CCCCN)C(=O)N[C@@H](CCCNC(=N)N)C(=O)N[C@@H](CCC(N)=O)C(=O)N[C@@H](CCC(N)=O)C(N)=O)[C@@H](C)CC)[C@@H](C)CC)[C@@H](C)O)[C@@H](C)O)C(C)C)C(C)C` [Melittin, reference compound], the minimum inhibitory concentration (MIC) – broadly, the lowest concentration found to suppress growth – runs as follows: (10 mM sodium phosphate buffer, pH 7.2) 1.56 µM (≈ 4.44 µg/mL); (PBS, pH 7.2 (number in parentheses)) 3.12 µM (≈ 8.88 µg/mL).

Values taken from paper PMC3549253, “Effect of repetitive lysine–tryptophan motifs on the bactericidal activity of antimicrobial peptides” (Amino Acids, 2012).
